The exact form of at least one protein or probe is not confirmed.
Tests used:
[1] = biological target: T1, LeuO (Vibrio parahaemolyticus) (UniProt Q87SS2); assay: EMSA; details: residues 1-319; probe letters rebuilt from the primers and the genome
T1 sequence: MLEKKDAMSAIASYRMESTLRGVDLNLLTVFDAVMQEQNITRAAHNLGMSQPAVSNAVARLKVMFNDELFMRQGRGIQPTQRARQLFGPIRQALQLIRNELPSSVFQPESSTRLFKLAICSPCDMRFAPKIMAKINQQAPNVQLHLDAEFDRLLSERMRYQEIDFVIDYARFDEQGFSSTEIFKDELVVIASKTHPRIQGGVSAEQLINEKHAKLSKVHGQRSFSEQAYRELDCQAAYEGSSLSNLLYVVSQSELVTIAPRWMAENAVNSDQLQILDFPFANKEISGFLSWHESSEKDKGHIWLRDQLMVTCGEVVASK

[2] = biological target: T2, NhaR (Vibrio parahaemolyticus) (UniProt Q87S97); assay: EMSA; details: residues 1-296; probe letters rebuilt from the primers and the genome
T2 sequence: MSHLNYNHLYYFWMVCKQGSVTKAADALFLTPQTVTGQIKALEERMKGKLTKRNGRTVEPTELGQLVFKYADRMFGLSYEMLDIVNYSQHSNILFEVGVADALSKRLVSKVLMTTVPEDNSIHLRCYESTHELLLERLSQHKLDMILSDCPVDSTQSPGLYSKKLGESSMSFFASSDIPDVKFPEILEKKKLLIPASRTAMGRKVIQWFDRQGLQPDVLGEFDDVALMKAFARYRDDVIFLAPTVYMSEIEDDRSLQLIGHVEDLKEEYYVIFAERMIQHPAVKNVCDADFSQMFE

Row | Sequence | binding result [1] | binding result [2]
1 | CCAAGGTGCTGATGTGATCATTTTGAAATACATATCCTTTGACGTCTAATTAAATTTCGTATTTATTATGGACATTCTTTACGGTTGAAAATCAAATAATCTGCGTTTTAATCTGGATTAATGTGACTAAAATCACACAAAAGCAACATTTAACCTAAATTTAAAATAGTTTGAACTCTAATTTATTAAAGCATCATTTAATACGAAACAACTCAACATGAGTCAGAATGCAGTGGGGTTTCAAAGAGGGGACTTAAGGTTTTTTACATAAAAAAACGGCACACTTTCGCATGCCGTTTTAAGGTTAGTTTTGTCGTCGTGGC (double strand) [PectA probe 1 (called PectA-2 in Fig. S5 legend)] | binds | binds
2 | CCCACTGCATTCTGACTCATGTTGAGTTGTTTCGTATTAAATGATGCTTTAATAAATTAGAGTTCAAACTATTTTAAATTTAGGTTAAATGTTGCTTTTGTGTGATTTTAGTCACATTAATCCAGATTAAAACGCAG (double strand) [PectA probe 1B] | – | binds

— paper doi:10.1101/2022.11.11.516238
